Anti-infective test results gathered from many reports (values: NIAID ChemDB through PubChem).

Common to all: host cell toxicity; cell line: HEK 293; read-out: CC50

An empty or dashed field is not shown.

structure | method | result
C=CCC1=CCCc2cc(OC)c(OC)cc21 |  | <7.5 µM
C=C(C)[C@@H]1CC[C@]2(C=O)CC[C@]3(C)[C@H](CC[C@@H]4[C@@]5(C)CC[C@H](OC(=O)CC(C)(C)C(=O)O)C(C)(C)[C@@H]5CC[C@]43C)[C@@H]12 |  | >300 µM
O=C(O)CS(=O)c1ccc2c3c(cccc13)C(=O)c1ccccc1-2 | fluorescence | >50 µM
CCc1ccc(CCN=C2NC(=O)/C(=C/c3ccc(-c4ccc(C(=O)O)c(O)c4)o3)S2)cc1 | MTT | 3.4 µM
COc1cc2c(cc1OC)C(C)=NCC2 |  | <7.5 µM
CC(C)(CC(=O)O[C@H]1CC[C@]2(C)[C@H]3CC[C@@H]4[C@@H]5C(CC[C@@]4(C)[C@]3(C)CC[C@H]2C1(C)C)C1CC(C)(C)[C@@H]5OC1=O)C(=O)O |  | >130 µM
CCOC(=O)CCCCCOc1cccc(CN(C(=O)c2ccc(-c3cccc([N+](=O)[O-])c3)cc2)C(C)C)c1 |  | >20 µM
CC1=C(O)C(C)(C)C(=O)C2=C1O[C@H](c1ccccc1)CC2=O | sulforhodamine | >20 µg/mL
CC1(C)C=C2C(CC[C@]3(C)[C@@H]2CC[C@@H]2[C@@]4(C)CC[C@H](OC(=O)CC(C)(C)C(=O)O)C(C)(C)[C@@H]4CC[C@]23C)[C@H](C(=O)O)C1 |  | >300 µM
COc1cccc(CN(C(=O)N[C@H](CO)Cc2ccccc2)N2CCOCC2)c1 | MTT | 37.2 µM
CC(C)CCNc1nc2cc3ccccc3cc2nc1NCCC(C)C | fluorescence | >20 µM
O=C1NC(=NCCc2ccc(Cl)c(Cl)c2)S/C1=C\c1ccc(-c2ccc(C(=O)O)c(O)c2)o1 | MTT | >100 µM
NCCC1=c2c(O)c3c(c(O)c2N=C1)=NC=CS3(=O)=O |  | 3.9 µM
CCOC(=O)CCCCCOc1cccc(CN(C(=O)c2ccc(-c3ccco3)cc2)C(C)C)c1 |  | >20 µM
O=C(N[C@H](CO)Cc1ccccc1)N(Cc1ccccc1)N1CCCCC1 | MTT | 34.8 µM
O=C(NCc1ccccc1)c1ccc(-c2ccc3c(c2)OCO3)cc1 |  | >20 µM
CCC(O)[NH+]1CC[NH+](C(O)CC)CC1.[Cl][Pt-2]([Cl])([Cl])([Cl])([Cl])[Cl] | fluorescence | >10 µM
O=C(N[C@H](CO)Cc1ccccc1)N(Cc1cccc(O)c1)N1CCOCC1 | MTT | 23.1 µM
CC(C)(C)OC(=O)NCC(OC(=O)C(O)CO)c1ccc2c(c1)OCO2 |  | <7.5 µM
Brc1c2ccccc2c(Br)c2nc(-c3ccco3)c(-c3ccco3)nc12 | fluorescence | >20 µM
CCOC(=O)CCCCCOc1cccc(CN(C(=O)c2ccc(-c3cccc(S(C)(=O)=O)c3)cc2)C(C)C)c1 |  | >20 µM
C=C(C)[C@@H]1CC[C@]2(C#N)CC[C@]3(C)[C@H](CC[C@@H]4[C@@]5(C)CC[C@H](OC(=O)CC(C)(C)C(=O)O)C(C)(C)[C@@H]5CC[C@]43C)[C@@H]12 |  | >300 µM

2 of the rows above, restated:

| structure | method | result |
|---|---|---|
| CC1=C(O)C(C)(C)C(=O)C2=C1O[C@H](c1ccccc1)CC2=O | sulforhodamine | >20 µg/mL |
| CC(C)(CC(=O)O[C@H]1CC[C@]2(C)[C@H]3CC[C@@H]4[C@@H]5C(CC[C@@]4(C)[C@]3(C)CC[C@H]2C1(C)C)C1CC(C)(C)[C@@H]5OC1=O)C(=O)O |  | >130 µM |

Lines come from different laboratories, so protocols vary. CCn is the concentration with n% toxicity to the cells.